Pooled drug test results. Numbers come from NIAID ChemDB, via PubChem.

Shared fields: growth or infection tests; agent: Human cytomegalovirus; read by: plaque count; read-out: EC50

Neighbouring rows are from separate reports. ECn: concentration that inhibits the pathogen or its effect by n%. Blank or dashed fields: not listed here.

structure,cells,strain or isolate,result
CC(=O)O[C@H]1C[C@H](n2cc(/C=C/Br)c(=O)[nH]c2=O)O[C@@H]1COP1(=O)OCc2ccccc2O1,HELF,AD169,>128 µg/mL
CC(C)NCC(O)c1ccc(O)c(O)c1,HEL,AD169,81 µg/mL
NC(=O)c1cn(COC(CO)CO)c2ncnc(N)c12,HFF,,>100 µM
Nc1nc2c(ncn2[C@H]2C=C[C@@H](CO)CC2)c(=O)[nH]1,HEL,U 9070,0.4 µg/mL
O=C1NCc2c1c1c3ccccc3[nH]c1c1[nH]c3ccccc3c21,HEF,A6245,0.17 µM
NC(=S)c1cn([C@H]2C[C@H](O)[C@@H](CO)O2)c2ncnc(N)c12,MRC-5,AD169,4 µM
Nc1ncnc2c1ncn2C[C@H](O)CO,HEL,AD-169 (20 PFU),>100 µg/mL
Cn1c2ccccc2c2c3c(c4c5ccccc5n(CCC#N)c4c21)CNC3=O,HEF,Isolate 6,0.009 µM
N#Cc1cn([C@H]2CC[C@@H](CO)O2)c2ncnc(N)c12,HFF,,18 µM
CC(C)Nc1nc2cc(Cl)c(Cl)cc2n1[C@H]1O[C@@H](CO)[C@H](O)[C@@H]1O,MRC-5,P,0.69 µM
NCC(O)c1ccc(O)c(O)c1,HEL,AD169,57 µg/mL
N#Cc1cn([C@@H]2O[C@H](CO)C[C@H]2O)c2ncnc(N)c12,HFF,,0.6 µM
O=C1c2ccccc2C(=O)c2ccccc21,MRC-5,AD169,>15.4 µM
Nc1ncnc2c1c(I)cn2COC(CO)CO,HFF,,3.5 µM
COC(=O)[C@]1(O)C[C@@H]2O[C@@]1(C)n1c3ccccc3c3c4c(c5c6ccccc6n2c5c31)C(=O)NC4,HEF,A6245,0.02 µM
Cc1cc(O)c2c(c1)Cc1cc(O)cc(O)c1C2=O,MRC-5,AD169,2.3 µM
CCOC(=O)c1cc(O)c(O)c(O)c1,HEL,DAVIS,7.4 µg/mL
Nc1ncnc2c1ncn2[C@@H]1C[C@H](CO)[C@@H](O)[C@H]1O,HEL,DAVIS (20 PFU),>100 µg/mL
O=C1c2cccc(O)c2C(=O)c2c(O)cccc21,MRC-5,AD169,>41.6 µM
Nc1nc(NC2CC2)c2ncn(/C=C3/C[C@@H]3CO)c2n1,HFF,AD169,1.9 µM
Cc1cc(=O)oc2cc(O)c(O)cc12,HEL,AD169,9.9 µg/mL
Nc1nc2c(ncn2COC(CO)CO)c(=O)[nH]1,HEL,Ganciclovir- and HPMPC-resistant,11.7 µg/mL
N#Cc1cn([C@@H]2O[C@H](CO)[C@@H](O)[C@H]2O)c2ncnc(N)c12,HFF,,0.05 µM
Cc1cccc2c1OP(=O)(OC[C@H]1O[C@@H](n3cc(/C=C/Br)c(=O)[nH]c3=O)C[C@@H]1OC(=O)C(C)(C)C)OC2,HELF,AD169,>128 µg/mL
O=c1[nH]cccc1O,HEL,DAVIS,>200 µg/mL
O=C(NCCc1c[nH]c2ccccc12)C1=Cc2ccncc2CC1,MRC-5,D16,1.6 µM
NC(=S)c1cn([C@@H]2O[C@H](CO)[C@@H](O)[C@@H]2O)c2ncnc(N)c12,MRC-5,AD169,1.5 µM
Nc1nccc2c1ncn2[C@@H]1C[C@H](CO)[C@@H](O)[C@H]1O,HEL,AD-169 (20 PFU),1.63 µg/mL
Nc1ccn(C[C@@H](CO)OCP(=O)(O)O)c(=O)n1,MRC-5,P,0.8 µM
C[C@@H](O)C1=C[C@@H](n2cnc3c(N)ncnc32)[C@H](O)[C@@H]1O,HEL,DAVIS (20 PFU),0.35 µg/mL
Nc1ncnc2c1ncn2/C=C1/C[C@H]1CO,HFF,TOWNE,2.5 µM
Nc1nccc2c1ncn2[C@@H]1O[C@H](CO)[C@@H](O)[C@H]1O,HEL,DAVIS (20 PFU),3.5 µg/mL
CCCOC(=O)c1cc(O)c(O)c(O)c1,HEL,AD169,12 µg/mL
Nc1ncnc2c1ccn2COCCO,HFF,,>100 µM
N/C(=N/O)c1cn([C@H]2C[C@H](O)[C@@H](CO)O2)c2ncnc(N)c12,MRC-5,AD169,9 µM
Nc1nc2c(ncn2/C=C2/C[C@@H]2CO)c(=O)[nH]1,HFF,AD169,2.6 µM
O=C1c2ccccc2C(=O)c2c1ccc(O)c2O,MRC-5,Ganciclovir-resistant,3.7 µM
O=C(O)C[C@H](NCCN[C@@H](CC(=O)O)C(=O)O)C(=O)O,HEL,DAVIS,11.8 µg/mL
N/C(=N/O)c1cn([C@@H]2O[C@H](CO)[C@@H](O)[C@@H]2O)c2ncnc(N)c12,MRC-5,AD169,22 µM
CC(=O)N(O)CCCCCNC(=O)CCC(=O)N(O)CCCCCNC(=O)CCC(=O)N(O)CCCCCN,HEL,AD169,4.4 µg/mL
O=c1[nH]c(=O)n([C@H]2C[C@H](O)[C@@H](COP3(=O)OCc4c(Cl)cccc4O3)O2)cc1/C=C/Br,HELF,AD169,>128 µg/mL
Nc1nc2c(ncn2[C@@H]2C=C[C@H](CO)CC2)c(=O)[nH]1,HEL,LY9990,0.38 µg/mL
CC(=O)CCC(=O)O[C@H]1C[C@H](n2cc(/C=C/Br)c(=O)[nH]c2=O)O[C@@H]1COP1(=O)OCc2cccc(C)c2O1,HELF,AD169,>128 µg/mL
Nc1nc2c(ncn2COC(CO)CO)c(=O)[nH]1,HFF,TOWNE,7.4 µM

3 of the rows above, restated:

structure	cells	strain or isolate	result
N#Cc1cn([C@@H]2O[C@H](CO)C[C@H]2O)c2ncnc(N)c12	HFF		0.6 µM
Nc1nc(NC2CC2)c2ncn(/C=C3/C[C@@H]3CO)c2n1	HFF	AD169	1.9 µM
Nc1ccn(C[C@@H](CO)OCP(=O)(O)O)c(=O)n1	MRC-5	P	0.8 µM